# Test results as given in publication PMC8394033, “Cytocidal Antitumor Effects against Human Ovarian Cancer Cells Induced by B-Lactam Steroid Alkylators with Targeted Activity against Poly (ADP-Ribose) Polymerase (PARP) Enzymes in a Cell-Free Assay” (Biomedicines, 2021).
# Protein sequences, listed by entry. Tags and fused reporters are not part of them.
# UniProt P09874, whole entry, looked up: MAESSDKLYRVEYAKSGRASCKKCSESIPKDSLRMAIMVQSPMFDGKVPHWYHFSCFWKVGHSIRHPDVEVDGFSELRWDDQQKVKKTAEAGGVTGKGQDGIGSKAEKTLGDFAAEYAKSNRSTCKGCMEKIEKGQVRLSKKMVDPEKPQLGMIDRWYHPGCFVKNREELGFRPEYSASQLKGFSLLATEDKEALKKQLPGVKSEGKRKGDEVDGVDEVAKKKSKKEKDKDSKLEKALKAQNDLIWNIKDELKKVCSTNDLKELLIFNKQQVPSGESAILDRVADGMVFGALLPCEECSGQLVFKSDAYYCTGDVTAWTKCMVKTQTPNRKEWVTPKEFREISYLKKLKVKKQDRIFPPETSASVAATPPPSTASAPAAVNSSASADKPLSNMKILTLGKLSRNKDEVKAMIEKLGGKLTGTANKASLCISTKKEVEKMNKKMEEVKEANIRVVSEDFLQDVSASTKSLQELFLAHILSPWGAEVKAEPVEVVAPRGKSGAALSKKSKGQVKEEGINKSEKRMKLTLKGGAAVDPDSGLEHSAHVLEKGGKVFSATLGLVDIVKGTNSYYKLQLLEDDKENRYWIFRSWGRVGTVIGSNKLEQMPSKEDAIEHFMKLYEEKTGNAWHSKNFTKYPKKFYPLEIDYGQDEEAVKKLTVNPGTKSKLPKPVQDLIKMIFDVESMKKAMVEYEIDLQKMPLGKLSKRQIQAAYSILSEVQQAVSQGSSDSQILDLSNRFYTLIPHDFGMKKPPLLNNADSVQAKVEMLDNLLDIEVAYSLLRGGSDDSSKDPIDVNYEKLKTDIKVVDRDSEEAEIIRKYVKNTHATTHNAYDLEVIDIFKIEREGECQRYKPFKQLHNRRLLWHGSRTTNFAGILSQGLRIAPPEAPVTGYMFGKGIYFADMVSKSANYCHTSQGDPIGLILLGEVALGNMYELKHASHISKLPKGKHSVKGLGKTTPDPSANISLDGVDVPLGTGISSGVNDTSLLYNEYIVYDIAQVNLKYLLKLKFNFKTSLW
# Legend:
# [1] = test system: PHA-stimulated PBMCs (T-lymphocytes) from healthy donors; experiment: Sister chromatid exchanges (SCEs) assay, genotoxicity and PRI; conditions: 3 μM
# UWB1.289 [2] = experiment: as above; conditions: UWB1.289, 3 μM
# UWB1.289 + BRCA1 [3] = experiment: as above; conditions: UWB1.289 +BRCA1, 3 μM
# [4] = biological target: PARP-HSA Enzyme (PARP1/2) (Homo sapiens, UniProt P09874); experiment: Universal PARP Colorimetric Assay Kit, cell-free PARP-1/2 activity assay; conditions: PARP 0.6 units/well
# MRC-5 = experiment: MTT assay, selectivity on normal lung fibroblasts
# UWB1.289 [5] = experiment: MTT assay, cytostatic and cytotoxic effects
# SKOV-3 = experiment: MTT assay, cytostatic and cytotoxic effects
# OVCAR-3 = experiment: MTT assay, cytostatic and cytotoxic effects
# UWB1.289 + BRCA1 [6] = experiment: MTT assay, cytostatic and cytotoxic effects
smiles,measurement,setting,value
O=C(O)CCOc1ccc(N(CCCl)CCCl)cc1,PRI (Proliferation Rate Index),[1]; Donor 1 PBMCs,2.74
same,SCE/Chromosome ± SEM,[1]; Donor 1 PBMCs,0.18 ± 0.01
same,SCEs/Metaphase ± SEM,[1]; Donor 1 PBMCs,8.4 ± 0.56
same,PRI (Proliferation Rate Index),[1]; Donor 2 PBMCs,2.78
same,SCE/Chromosome ± SEM,[1]; Donor 2 PBMCs,0.18 ± 0.009
same,SCEs/Metaphase ± SEM,[1]; Donor 2 PBMCs,8.06 ± 0.43
same,PRI (Proliferation Rate Index),[1]; Donor 3 PBMCs,2.51
same,SCE/Chromosome ± SEM,[1]; Donor 3 PBMCs,0.19 ± 0.011
same,SCEs/Metaphase ± SEM,[1]; Donor 3 PBMCs,8.54 ± 0.51
same,PRI (Proliferation Rate Index),[1]; Donor 4 PBMCs,2.73
same,SCE/Chromosome ± SEM,[1]; Donor 4 PBMCs,0.16 ± 0.006
same,SCEs/Metaphase ± SEM,[1]; Donor 4 PBMCs,7.56 ± 0.31
same,PRI (Proliferation Rate Index),[1]; Donor 5 PBMCs,2.60
same,SCE/Chromosome ± SEM,[1]; Donor 5 PBMCs,0.2 ± 0.013
same,SCEs/Metaphase ± SEM,[1]; Donor 5 PBMCs,9.02 ± 0.6
same,Mean PRI ± SD,[1]; mean of 5 donors' PBMCs,2.672 ± 0.11
same,Mean SCE/Chromosome ± SD,[1]; mean of 5 donors' PBMCs,0.18 ± 0.011
same,Mean SCEs/metaphase Mean ± SD,[1]; mean of 5 donors' PBMCs,8.32 ± 0.55
same,PRI (Proliferation Rate Index),UWB1.289 [2],2.22
same,SCE/Chromosome ± SEM,UWB1.289 [2],0.32 ± 0.02
same,SCEs/Metaphase ± SEM,UWB1.289 [2],23.48 ± 1.58
same,PRI (Proliferation Rate Index),UWB1.289 + BRCA1 [3],2.11
same,SCE/Chromosome ± SEM,UWB1.289 + BRCA1 [3],0.22 ± 0.02
same,SCEs/Metaphase ± SEM,UWB1.289 + BRCA1 [3],16.08 ± 1.26
same,IC50 (50% inhibition of the PARP enzymatic activity),[4],132.68 ± 22.15 µM
same,IC100 (PARP inhibition),[4],>300 µM
same,"TGI ±SEM (100% cell growth inhibition, cytostatic)","MRC-5; MRC-5 normal human lung fibroblasts, 48 h treatment",>100 µM
same,GI50,"MRC-5; read-out: GI50 ±SEM (50% inhibition of cell growth, cytostatic), MRC-5 normal human lung fibroblasts, 48 h treatment",> 100 µM
same,IC50,"MRC-5; read-out: IC50 ±SEM (50% cytocidal effect, cytotoxic), MRC-5 normal human lung fibroblasts, 48 h treatment",> 100 µM
same,"TGI ±SEM (100% cell growth inhibition, cytostatic)","UWB1.289 [5]; UWB1.289, 48 h treatment",>100 µM
same,GI50,"UWB1.289 [5]; read-out: GI50 ±SEM (50% inhibition of cell growth, cytostatic), UWB1.289, 48 h treatment",64 µM
same,IC50,"UWB1.289 [5]; read-out: IC50 ±SEM (50% cytocidal effect, cytotoxic), UWB1.289, 48 h treatment",> 100 µM
same,"TGI ±SEM (100% cell growth inhibition, cytostatic)","SKOV-3; SKOV-3, 48 h treatment",>100 µM
same,GI50,"SKOV-3; read-out: GI50 ±SEM (50% inhibition of cell growth, cytostatic), SKOV-3, 48 h treatment",77 µM
same,IC50,"SKOV-3; read-out: IC50 ±SEM (50% cytocidal effect, cytotoxic), SKOV-3, 48 h treatment",> 100 µM
same,"TGI ±SEM (100% cell growth inhibition, cytostatic)","OVCAR-3; OVCAR-3, 48 h treatment",>100 µM
same,GI50,"OVCAR-3; read-out: GI50 ±SEM (50% inhibition of cell growth, cytostatic), OVCAR-3, 48 h treatment",> 100 µM
same,IC50,"OVCAR-3; read-out: IC50 ±SEM (50% cytocidal effect, cytotoxic), OVCAR-3, 48 h treatment",> 100 µM
same,"TGI ±SEM (100% cell growth inhibition, cytostatic)","UWB1.289 + BRCA1 [6]; UWB1.289 + BRCA1, 48 h treatment",>100 µM
same,GI50,"UWB1.289 + BRCA1 [6]; read-out: GI50 ±SEM (50% inhibition of cell growth, cytostatic), UWB1.289 + BRCA1, 48 h treatment",> 100 µM
same,IC50,"UWB1.289 + BRCA1 [6]; read-out: IC50 ±SEM (50% cytocidal effect, cytotoxic), UWB1.289 + BRCA1, 48 h treatment",> 100 µM
